Pooled drug test results. Numbers come from NIAID ChemDB, via PubChem.

All rows: growth or infection tests; species: Mycobacterium fortuitum; read-out: MIC

a–b is a range or a potency band. An empty or dashed field is not shown. Neighbouring rows are from separate reports.

structure | strain | value
Cc1cccc(Nc2nc(C#N)cnc2C(N)=O)c1 | 1021 | >100 µg/mL
CC(C)CSc1ccnc(C(N)=S)c1 | 1021 | 2000 µM
CN(C)c1ccc(/C=N/N=C(\N)c2ccccn2)c2ccccc12 | NCTC 10394 | 8–16 µg/mL
COc1cc2c(cc1O)CCc1cc(OC)c(OC)c(O)c1-2 |  | 25 µg/mL
CCn1cc(C(=O)O)c(=O)c2cc(F)c(C3SCC(C)N3C)cc21 |  | 50 µg/mL
CC1CN(c2cc3c(cc2F)c(=O)c(C(=O)O)cn3-c2ccc(F)cc2F)CCN1 | ATCC 6841 | 8 µg/mL
N#Cc1cnc(C(N)=O)c(Nc2ccc(O)cc2)n1 | 1021 | >100 µg/mL
COc1cc(/C=N/N=C(\N)c2ccccn2)cc(OC)c1OC |  | 256 µg/mL
NC[C@H]1O[C@H](O[C@H]2[C@H](O)[C@@H](O[C@H]3O[C@H](CO)[C@@H](O)[C@H](N)[C@H]3O)[C@H](N)C[C@@H]2N)[C@H](O)[C@@H](O)[C@@H]1O | ATCC 6841 | 64 µg/mL
N/C(=N/N=C/c1ccc(Cl)cc1)c1ccccn1 |  | 256 µg/mL
CCCCCCOC1Oc2ccc(Cl)cc2C(=O)/C1=C\Nc1ccc(C(=O)O)c(O)c1 | 1021 | >100 µg/mL
CO[C@@]1(NC(=O)C2SC(=C(C(N)=O)C(=O)[O-])S2)C(=O)N2C(C(=O)[O-])=C(CSc3nnnn3C)CS[C@@H]21 | 1045 | 50 µg/mL
CCn1cc(C(=O)O)c(=O)c2ccc(-c3csc(SC)n3)cc21 |  | 6.25 µg/mL
CCN(CC)c1nc(C(N)=S)cnc1C(N)=O | 1021 | >100 µg/mL
N#Cc1cnc(C(N)=O)c(Nc2ccccc2)n1 | 1021 | >100 µg/mL
CCn1cc(C(=O)O)c(=O)c2ccc(C3SCC(C)N3C)cc21 |  | 50 µg/mL
N/C(=N/N=C/c1cccc(Br)c1)c1ccccn1 |  | 256 µg/mL
CCOC1Oc2ccccc2C(=O)/C1=C\Nc1cccc(C(=O)O)c1O | 1021 | >100 µg/mL
NC(=S)c1cc(SC2CCCCC2)ccn1 | 1021 | 1000 µM
CCOC(=O)/C(N=Nc1ccc(-c2n[nH]c(=S)n2CC)cc1)=C(\C)O | ATCC 6841 | 64 µg/mL
COc1cccc(Nc2nc(C#N)cnc2C(N)=O)c1 | 1021 | >100 µg/mL
CC(C)c1ccc(/C=N/N=C(\N)c2ccccn2)cc1 | NCTC 10394 | 8–16 µg/mL
CCCCN(CCCC)c1nc(C(N)=S)cnc1C(N)=O | 1021 | >100 µg/mL
CC(C)OC1Oc2ccc([N+](=O)[O-])cc2C(=O)/C1=C\Nc1ccc(C(=O)O)c(O)c1 | 1021 | >100 µg/mL
C[C@H]1C[C@H](N)CN1c1cc2c(cc1F)c(=O)c(C(=O)O)cn2-c1ccc(F)cc1F | ATCC 6841 | 8 µg/mL
C[C@@H](O)[C@H]1C(=O)N2C(C(=O)O)=C(SCCN=CN)C[C@H]12 | 1047 | 3.12 µg/mL
CCn1cc(C(=O)O)c(=O)c2cc(F)c(C3CSC(C)N3C)cc21 |  | >100 µg/mL
Cc1c(CN2CCN(C)CC2)cc(-c2ccc(Cl)cc2)n1-c1ccc(Cl)cc1 | CA10 | 3.1 µg/mL
CN[C@@H]1[C@H](O[C@H]2[C@H](O[C@H]3[C@H](O)[C@@H](O)[C@H](N=C(N)N)[C@@H](O)[C@@H]3N=C(N)N)O[C@@H](C)[C@]2(O)C=O)O[C@@H](CO)[C@H](O)[C@H]1O |  | 1.56 µg/mL
CCCCCSc1ccnc(C(N)=S)c1 | 1021 | 250 µM
CCn1cc(C(=O)O)c(=O)c2ccc(-c3csc(NC(C)=O)n3)cc21 |  | 1.6 µg/mL
COc1cc(/C=N/N=C(\N)c2ccccn2)cc(OC)c1 |  | 256 µg/mL
NC(=O)c1ncc(C(N)=S)nc1N1CCCCC1 | 1021 | >100 µg/mL
CC[C@H]1OC(=O)[C@H](C)[C@@H](O[C@H]2C[C@@](C)(OC)[C@@H](O)[C@H](C)O2)[C@H](C)[C@@H](O[C@@H]2O[C@H](C)C[C@H](N(C)C)[C@H]2O)[C@](C)(O)C[C@@H](C)C(=O)[C@H](C)[C@@H](O)[C@]1(C)O | ATCC 6841 | >8 µg/mL
CCn1cc(C(=O)O)c(=O)c2ccc(-c3csc(N)n3)cc21 |  | 3.12 µg/mL
Cc1cccc(C)c1Nc1nc(C#N)cnc1C(N)=O | 1021 | >100 µg/mL
CCOC(=O)/C(N=Nc1ccc(-c2n[nH]c(=S)n2-c2ccccc2)cc1)=C(\C)O | ATCC 6841 | 64 µg/mL
N/C(=N\N=C\c1ccc([N+](=O)[O-])cc1)c1ccccn1 |  | 256 µg/mL
CO[C@@]1(NC(=O)CCCC(N)C(=O)O)C(=O)N2C(C(=O)O)=C(COC(C)=O)CSC21 | 1263 | >100 µg/mL
CCCCCCCCCCSc1ccnc(C(N)=S)c1 | 1021 | 1000 µM
CCn1cc(C(=O)O)c(=O)c2cc(Cl)c(-c3nc(C)c(C)s3)cc21 |  | 6.25 µg/mL
CCOC(=O)/C(N=Nc1ccc(C(=O)N/N=C\c2ccc(F)cc2)cc1)=C(\C)O | ATCC 6841 | 64 µg/mL
N/C(=N\N=C\c1ccccc1OCc1ccccc1)c1ccccn1 | NCTC 10394 | 25–50 µg/mL
CC(C)N=c1cc2n(-c3ccc(Cl)cc3)c3ccccc3nc-2cc1Nc1ccc(Cl)cc1 | 8521 | 13.3 µg/mL
CO[C@@]1(NC(=O)C(C(=O)O)c2ccc(O)cc2)C(=O)N2C(C(=O)O)=C(CSc3nnnn3C)CO[C@@H]21 | 1260 | 50 µg/mL
CC1COc2c(N3CCN(C)CC3)c(F)cc3c(=O)c(C(=O)O)cn1c23 | NCTC 10394 | 2 µg/mL
CCOC1Oc2ccc(Cl)cc2C(=O)/C1=C\Nc1cccc(C(=O)O)c1O | 1021 | >100 µg/mL
N/C(=N\N=C\c1cccc(OCc2ccccc2)c1)c1ccccn1 | NCTC 10394 | 32–64 µg/mL
CCn1cc(C(=O)O)c(=O)c2ccc(-c3nc(C)c(C)s3)cc21 |  | 12.5 µg/mL
CCn1cc(C(=O)O)c(=O)c2cc(F)c(-c3csc(-c4ccccc4)n3)cc21 |  | 3.12 µg/mL
N#Cc1cnc(C(N)=O)c(NC2CCCCCC2)n1 | 1021 | >100 µg/mL
NCC[C@H](O)C(=O)N[C@@H]1C[C@H](N)[C@@H](O[C@H]2O[C@H](CN)[C@@H](O)[C@H](O)[C@H]2O)[C@H](O)[C@H]1O[C@H]1O[C@H](CO)[C@@H](O)[C@H](N)[C@H]1O | ATCC 6841 | 8 µg/mL
NC[C@H]1O[C@H](O[C@H]2[C@H](O)[C@@H](O[C@H]3O[C@H](CO)[C@@H](O)[C@H](N)[C@H]3O)[C@H](N)C[C@@H]2N)[C@H](N)C[C@@H]1O | ATCC 6841 | 16 µg/mL
COc1cc(OC)c2c(ccc3cc(O)c(O)cc32)c1 |  | 25 µg/mL
CC[C@H]1OC(=O)[C@H](C)[C@@H](O[C@H]2C[C@@](C)(OC)[C@@H](O)[C@H](C)O2)[C@H](C)[C@@H](O[C@@H]2O[C@H](C)C[C@H](N(C)C)[C@H]2O)[C@](C)(OC)C[C@@H](C)C(=O)[C@H](C)[C@@H](O)[C@]1(C)O | ATCC 6841 | >8 µg/mL
CCn1cc(C(=O)O)c(=O)c2ccc(-c3cscn3)cc21 |  | 6.25 µg/mL
NC[C@H]1O[C@H](O[C@H]2[C@H](O)[C@@H](O[C@H]3O[C@H](CO)[C@@H](O)[C@H](N)[C@H]3O)[C@H](N)C[C@@H]2N)[C@H](N)C[C@@H]1O | ATCC 6841 | 64 µg/mL
CCCSc1ccnc(C(N)=S)c1 | 1021 | 250 µM
COc1ccc(/C=N/N=C(\N)c2ccccn2)c2ccccc12 | NCTC 10394 | 16–32 µg/mL
CCn1cc(C(=O)O)c(=O)c2cc(F)c(-c3nc(-c4ccccc4)cs3)cc21 |  | 3.12 µg/mL
N/C(=N\N=C\c1ccccn1)c1ccccn1 | NCTC 10394 | >50 µg/mL
CC[C@H]1OC(=O)[C@H](C)[C@@H](O[C@H]2C[C@@](C)(OC)[C@@H](O)[C@H](C)O2)[C@H](C)[C@@H](O[C@@H]2O[C@H](C)C[C@H](N(C)C)[C@H]2O)[C@](C)(O)C[C@@H](C)CN(C)[C@H](C)[C@@H](O)[C@]1(C)O | ATCC 6841 | >8 µg/mL
COc1cc(O)cc(OC)c1C(=O)/C=C/c1ccccc1 |  | 100 µg/mL

Repeating the first 8 entries:

structure,strain,value
Cc1cccc(Nc2nc(C#N)cnc2C(N)=O)c1,1021,>100 µg/mL
CC(C)CSc1ccnc(C(N)=S)c1,1021,2000 µM
CN(C)c1ccc(/C=N/N=C(\N)c2ccccn2)c2ccccc12,NCTC 10394,8–16 µg/mL
COc1cc2c(cc1O)CCc1cc(OC)c(OC)c(O)c1-2,,25 µg/mL
CCn1cc(C(=O)O)c(=O)c2cc(F)c(C3SCC(C)N3C)cc21,,50 µg/mL
CC1CN(c2cc3c(cc2F)c(=O)c(C(=O)O)cn3-c2ccc(F)cc2F)CCN1,ATCC 6841,8 µg/mL
N#Cc1cnc(C(N)=O)c(Nc2ccc(O)cc2)n1,1021,>100 µg/mL
COc1cc(/C=N/N=C(\N)c2ccccn2)cc(OC)c1OC,,256 µg/mL